Test results published in PMC7229144, “Tetracycline-inactivating enzymes from environmental, human commensal, and pathogenic bacteria cause broad-spectrum tetracycline resistance” (Communications Biology, 2020).

Protein sequences, listed by entry. Tags and fused reporters are not part of them. Lines headed by an entry give the natural chain unless they say otherwise; changes in a name come on top.
UniProt Q01911: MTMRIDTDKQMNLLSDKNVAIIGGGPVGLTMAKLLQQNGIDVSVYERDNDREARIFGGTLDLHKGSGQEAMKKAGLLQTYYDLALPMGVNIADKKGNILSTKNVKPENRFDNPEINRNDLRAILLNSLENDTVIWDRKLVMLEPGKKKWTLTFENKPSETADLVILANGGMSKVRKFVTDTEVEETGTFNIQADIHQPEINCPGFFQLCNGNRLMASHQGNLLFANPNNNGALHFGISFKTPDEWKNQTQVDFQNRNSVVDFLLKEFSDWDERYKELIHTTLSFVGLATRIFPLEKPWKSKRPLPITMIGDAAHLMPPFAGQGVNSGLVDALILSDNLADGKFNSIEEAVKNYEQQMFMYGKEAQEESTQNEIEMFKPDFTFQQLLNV

Target: Tet(X) (Bacteroides fragilis, UniProt Q01911)
Experiment: steady-state kinetics, absorbance
Details: read-out: Km (apparent); 0-40 µM substrate, 504 µM NADPH, 5.04 mM MgCl2, 0.4 µM enzyme, 100 mM TAPS pH 8.5, room temperature

Molecule `CN(C)[C@@H]1C(=O)C(C(N)=O)=C(O)[C@@]2(O)C(=O)C3=C(O)c4c(O)c(NC(=O)CN5CCCC5)cc(F)c4C[C@H]3C[C@@H]12` has a Km of 4 µM.
